From publication PMC8392292 (Biomedicines, 2021)
Not every entry of the source has a single result; some have several. This list holds those alone. An entry can have further records. Results that share an entry differ for a reason that is not stated; they may come from other doses, times, organisms or constructs than stated.

Biological target: SARS-CoV-2 RdRp (Severe acute respiratory syndrome coronavirus 2, UniProt P0DTD1)
Test: Cell-based SARS-CoV-2 RdRp activity assay (NLuc/FLuc reporter, nsp12 only)
Conditions: max. dose 4.4 μM; HEK293T, 15 h; tested form: HCl

## OC1C=C2CCN3Cc4cc5c(cc4C(C1O)C23)OCO5 (stereo not shown)
  Inhibition % of RdRp Activity at Max. Dose: completely inhibited and 100%
